Literature values, collected in patent publication US20220235325A1, “STIMULATION OF DENDRITIC CELL ACTIVITY BY HOMOTAURINE AND ANALOGUES THEREOF” (Therapeutic Solutions International, Inc., priority 2021, published 2022).

Test system: M2 macrophages
Conditions: EGFR-positive cells loaded with low concentrations of antibody; cited from earlier work

Substance: cetuximab: anti-epidermal growth factor receptor (EGFR) monoclonal antibody (mAb)
- IL-10 and VEGF production: further augmentation
